Values from PubChem BioAssay AID1259414 (Drosophila RNAi Screening Center, 2018)
Purpose: 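Genome-wide screen for host control of endosymbiont load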 (primary screen). Cells: Drosophila JW18 cells infected with Wolbachia. Reagent: long dsRNA against Drosophila genes, 0.25 µg dsRNA per well of a 384-well plate. Duration: 5 days. Conditions: cells persistently infected with Wolbachia before knock-down; no added drug. Detection: 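Automated imaging of bacterial rRNA staining divided by host cell count, reported as plate-normalised robust z-score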. Scale: Wolbachia per cell robust z: higher = more Wolbachia per host cell than the plate typical. Rule for the call: 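Active if absolute robust z reaches 1.5 in two or more of three replicates, leaving out multi- or no-target dsRNAs, genes unexpressed in JW18 and A1 wells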.
The deposit covers about 24,000 reagents; below is a random part of those that have a named target and a result. Over the whole deposit, about 1,210 (5%) are marked active. 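Inactive calls also include excluded dsRNAs with several or no targets, genes unexpressed in JW18, and well A1, regardless of score.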 Entries without a mark were called inactive. Reagent sequences are not shown.

no.	gene	amplicon	Wolbachia per cell robust z, rep 1	Wolbachia per cell robust z, rep 2	Wolbachia per cell robust z, rep 3
1	lncRNA:CR32027 (long non-coding RNA:CR32027)	DRSC09571	0.546	-6.8	-0.326
2	EndoG (Endonuclease G)	DRSC07292	0.433	0.388	-0.577
3	EndoG (Endonuclease G)	DRSC22746	-0.648	0.456	0.206
4	EndoG (Endonuclease G)	DRSC26632	-3.68 (active)	1.26	-9.3
5	eIF2alpha (eukaryotic translation initiation factor 2 subunit alpha)	DRSC20327	1.5 (active)	-8.51	3.36
6	Gr89a (Gustatory receptor 89a)	DRSC15023	-0.00472	1.38	0.0847
7	CG32461	DRSC11594	0.197	-1.37	-0.321
8	Ir7c (Ionotropic receptor 7c)	DRSC18007	-1.52	-0.67	0.623
9	Spn31A (Serpin 31A)	DRSC02780	-1.1	1.18	1.88
10	Spn31A (Serpin 31A)	DRSC29198	0.214	-1.26	-0.635
11	Lamp1	DRSC03727	0.521	-2.62	0.41
12	Msr-110	DRSC11227	-0.772	1.23	0.187
13	Msr-110	DRSC25246	-4.6	-0.974	-0.443
14	CR42490 (pseudo)	DRSC01649	0.219	0.487	-8.5
15	CR42490 (pseudo)	DRSC28297	0.682	-0.248	0.366
16	CG4332	DRSC19890	-0.134	0.933	-5.92
17	Nse4 (Non-SMC element 4)	DRSC02239	-1.57	-0.15	-0.373
18	Nse4 (Non-SMC element 4)	DRSC28337	0.247	-0.686	-0.903
19	hbn (homeobrain)	DRSC04238	-1.2	-0.308	0.906
20	hbn (homeobrain)	DRSC04239	-0.596	-3	-0.091
21	hbn (homeobrain)	DRSC22436	-2.4	-0.0174	0.165
22	CG5033	DRSC07410	0.478	-0.177	-0.0214
23	CG5033	DRSC27783	-2.45	-0.0165	-0.166
24	Debcl (Death executioner Bcl-2)	DRSC04965	0.573	0.457	0.749
25	Debcl (Death executioner Bcl-2)	DRSC30010	1.23	-2.23	0.827
26	BORCS5 (BLOC-1 related complex subunit 5)	DRSC19427	0.354	0.198	0.39
27	BORCS5 (BLOC-1 related complex subunit 5)	DRSC26187	-0.33	-0.387	-0.561
28	CG42685	DRSC01971	1.78	-0.231	1.74
29	CG42685	DRSC38625	-0.729	-5.43	-2.84
30	Sec13 (Secretory 13)	DRSC14144	-0.885	0.699	-0.999
31	p (pink)	DRSC16560	0.505	-0.556	0.762
32	p (pink)	DRSC27891	0.705	0.595	0.924
33	CheB53a (Chemosensory protein B 53a)	DRSC06625	-2.07	-0.502	0.656
34	CG5455	DRSC15805	-0.254	-3	0.592
35	CG5455	DRSC27389	0.101	-1.41	-0.869
36	Vps16B (Vacuolar protein sorting 16B)	DRSC15304	0.738	-1.17	0.624
37	CG15370	DRSC23277	0.815	0.593	0.865
38	CG15370	DRSC29703	0.422	1.49	0.403
39	cbc (crowded by cid)	DRSC06957	0.587	-0.198	0.82
40	Cerk (Ceramide kinase)	DRSC12285	0.496	-5.25	0.462
41	Chchd2 (Coiled-coil-helix-coiled-coil-helix domain containing 2)	DRSC19931	0.121	0.01	0.323
42	Chchd2 (Coiled-coil-helix-coiled-coil-helix domain containing 2)	DRSC29551	-1.38	0.101	-0.305

Records above with an active call:
gene	amplicon	Wolbachia per cell robust z, rep 1	Wolbachia per cell robust z, rep 2	Wolbachia per cell robust z, rep 3
EndoG (Endonuclease G)	DRSC26632	-3.68 (active)	1.26	-9.3
eIF2alpha (eukaryotic translation initiation factor 2 subunit alpha)	DRSC20327	1.5 (active)	-8.51	3.36

The list goes on:
no.	gene	amplicon	Wolbachia per cell robust z, rep 1	Wolbachia per cell robust z, rep 2	Wolbachia per cell robust z, rep 3
43	CG30345	DRSC05144	-0.108	-0.0984	0.499
44	CG34115	DRSC38621	0.036	0.36	-0.937
45	CG30016	DRSC05242	1.28	0.378	-7.78
46	Nek2	DRSC18124	0.685	-4.63	-0.157
47	Nek2	DRSC26714	-1.91	-0.304	0.181
48	Shrm (Shroom)	DRSC06438	-2.36	1.34	-0.467
49	Shrm (Shroom)	DRSC07221	-1.29	0.553	1.07
50	Shrm (Shroom)	DRSC23067	-1.57 (active)	-2.06	-4
51	Shrm (Shroom)	DRSC25072	-8.4	-0.672	-0.13
52	Shrm (Shroom)	DRSC27498	-0.598	0.101	-0.935
53	Prosbeta4 (Proteasome beta4 subunit)	DRSC02603	1.8 (active)	0.739	3.1
54	CG13643	DRSC14641	0.522	-2.21	0.873
55	CG13643	DRSC14642	0.274 (active)	-2.42	-1.99
56	CG13643	DRSC28349	-0.786	-1.56	-0.661
57	CG8507	DRSC16435	0.704	-0.232	-0.558
58	Cyp4d20 (Cytochrome P450 4d20)	DRSC08654	-5.02	-4.6	-3.46
59	Cyp4d20 (Cytochrome P450 4d20)	DRSC25418	0.632	0.271	0.348
60	Vago	DRSC19833	-1.25	0.865	-0.0289
61	Vago	DRSC26320	0.824	0.736	1.11
62	Lime (Linking immunity and metabolism)	DRSC06752	1.25	0.888	0.668
63	CG13377	DRSC18622	-0.284	-1.33	-0.625
64	CG17930	DRSC15292	-1.28	-2.19	-0.438
65	CG17930	DRSC28230	0.342	0.947	0.632
66	Snx21 (Sorting nexin 21)	DRSC00564	0.237	-0.88	-2.7
67	Snx21 (Sorting nexin 21)	DRSC28493	-1.46	-1.22	-0.334
68	CG17801	DRSC15273	0.751	-0.118	-0.17
